Data as given in PMC13572408.
Construct, isoform or probe ends are uncertain for at least one entry. Protein sequences can lack the tags named with them.

What was measured:
[1] = target: T1, His6-AstR (Acinetobacter baumannii ATCC 17978 (17978VU)) (UniProt A0A7U3Y4V5); test: EMSA supershift; settings: anti-His antibody; 20 mM Tris-HCl, 2.5 mM MgCl2, 0.45 mM EDTA, 50 mM NaCl, 10% glycerol, 5 mM DTT, pH 7.5, room temperature 30 min; 5 nM DNA; 7.5% TGX gel in TBE; recombinant protein; protein details: N-terminal His6 (pET15b); label: 5'-Cy5.5 on reverse primer; probe letters rebuilt from the primers and the genome
T1 sequence (looked up, limits assumed): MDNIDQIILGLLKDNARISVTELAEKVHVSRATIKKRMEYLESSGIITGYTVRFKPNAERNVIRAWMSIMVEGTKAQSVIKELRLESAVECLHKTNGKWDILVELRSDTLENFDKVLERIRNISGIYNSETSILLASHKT

[2] = target: T1, His6-AstR (Acinetobacter baumannii ATCC 17978 (17978VU)); test: EMSA; settings: 20 mM Tris-HCl, 2.5 mM MgCl2, 0.45 mM EDTA, 50 mM NaCl, 10% glycerol, 5 mM DTT, pH 7.5, room temperature 30 min, 5 nM DNA, 7.5% TGX gel in TBE, recombinant protein, protein details: N-terminal His6 (pET15b), label: 5'-Cy5.5 on reverse primer, probe letters rebuilt from the primers and the genome

Measured: binding result

CTTATCTAGTCCATTAAATTGAATTATTCGGGTTAACTGATGACCTTATTATTCAAAATCAAATTGATTCACAAAATTTGTAATTCAGTCAAAAATGAATTATTTTTTACCAATCTGATAATTGACAATTACATT (double strand) [astNp 135 bp]
binds: [1] | [2]; 5 mM ornithine + succinate, binding not dramatically altered | [2]; 0.5-10 uM protein, no ligand
